Measured values published in article PMC7263513 (bioRxiv, 2020).

Target: SARS-CoV-2 receptor binding domain (RBD) (Severe acute respiratory syndrome …)
Assay: cell-based or functional assay

B1: C127 (antibody, V domains shown)
VH: QVQLVQSGAEVKKPGASVKVSCKASGYTFTGYYMHWVRQAPGQGLEWMGWINPNSGGTNYAQKFQGRVTMTRDTSISTAYMELSRLRSDDTAVYYCATAHPRRIQGVFFLGPGVWGQGTTVTVSS
VL: not shown
B1 was tested, and the “IC50 of neutralisation of SARS-CoV-2 pseudovirus (293T_(ACE2) cells)” value was 0.0687 µg/mL.
